Measured values from several laboratories, pooled; numbers as filed in NIAID ChemDB.

Shared fields: toxicity to cultured cells; cells: HepG2; measure: CC50

Rows are shuffled and stem from different studies. CCn is the concentration with n% toxicity to the cells. Blank or dashed fields: not listed here.

{"SMILES": "CC1C(=O)N(O)c2ncc(Br)cc2C1O", "read by": "MTS", "conditions": "7 d", "value": "46.1 µM"}
{"SMILES": "C[C@@H]1CCC2[C@@H](C)[C@@H](OCCNCCN3CCCCC3)O[C@@H]3OC4(C)CCC1[C@@]23OO4", "read by": "ATP / luminescence", "value": ">13.3 µM"}
{"SMILES": "Cc1csc(C(C)(O)c2nnc(Nc3ccc(Br)cn3)s2)n1", "read by": "resazurin / fluorescence", "value": "79.4 µM"}
{"SMILES": "COC(=O)N[C@H](C(=O)N1CCC[C@H]1c1ncc(-c2ccc(-c3ccc(-c4cnc([C@@H]5CCCN5C(=O)[C@@H](NC(=O)OC)C(C)C)[nH]4)cc3)cc2)[nH]1)C(C)C", "read by": "LDH", "value": "17.4 µM"}
{"SMILES": "CCc1ccc(OCCCCN(C)Cc2ccccc2)cc1", "read by": "cell count / luminescence", "value": ">22.4 µM"}
{"SMILES": "CO[C@H]1C=CC2=CC(=O)N3CCc4cc5c(cc4[C@]23C1)OCO5", "read by": "MTT", "value": "3.89 µg/mL"}
{"SMILES": "CCCCCCCC(=O)OC1O[C@@H]2OC3(C)CCC4[C@H](C)CCC([C@H]1C)[C@]42OO3", "read by": "ATP / luminescence", "value": ">26 µM"}
{"SMILES": "N#CC(O)c1ccccc1", "read by": "MTT", "value": "1100 µg/mL"}
{"SMILES": "COc1cc2c(cc1O)CCN1CC=C3C=C[C@H](OC)C[C@]321", "read by": "MTT", "value": "11.8 µg/mL"}
{"SMILES": "OC(COc1ccc(OCc2ccccc2)cc1)CN1CCCCC1", "read by": "cell count / luminescence", "value": ">27.1 µM"}
{"SMILES": "C[C@@H]1CCC2[C@@H](C)[C@@H](OCCNCCCn3ccnc3)O[C@@H]3OC4(C)CCC1[C@@]23OO4", "read by": "ATP / luminescence", "value": ">22.7 µM"}
{"SMILES": "CCOc1ccc2nc(C)cc(Nc3ccc4c(c3)OCCO4)c2c1", "read by": "cell count / luminescence", "value": ">32.5 µM"}
{"SMILES": "CO[C@H]1O[C@@H]2O[C@@]3(C)CC[C@H]4[C@H](C)CC[C@@H]([C@H]1C)[C@@]24OO3", "read by": "ATP / luminescence", "value": ">26 µM"}
{"SMILES": "Cc1csc(C(C)(O)c2nnc(Nc3cccc(C(F)(F)F)n3)s2)n1", "read by": "resazurin / fluorescence", "value": ">100 µM"}
{"SMILES": "CC(O)CNCCCCOc1ccc(Cl)cc1Cc1ccccc1", "read by": "cell count / luminescence", "value": ">12.8 µM"}

The first 2 rows once more:

SMILES	read by	conditions	value
CC1C(=O)N(O)c2ncc(Br)cc2C1O	MTS	7 d	46.1 µM
C[C@@H]1CCC2[C@@H](C)[C@@H](OCCNCCN3CCCCC3)O[C@@H]3OC4(C)CCC1[C@@]23OO4	ATP / luminescence	-	>13.3 µM